System: WNV
Assay: Viral titer reduction assay
Conditions: CC50/EC50

Row | Compound | Therapeutic index
1 | Cc1nn(-c2ccc(S(=O)(=O)[O-])cc2)c([O-])c1N=Nc1ccc(-c2ccc(N=Nc3ccc4c(S(=O)(=O)[O-])cc(S(=O)(=O)[O-])c(N)c4c3[O-])c([O-])c2)cc1[O-].[Cu+2].[Cu+2].[H+].[H+].[H+] [NSC 306711] | 332
2 | O=C1CN2CCN(CC2)CC(=O)Nc2ccc(cc2)S(=O)(=O)c2ccc(cc2)NC(=O)CN2CCN(CC2)CC(=O)Nc2ccc(cc2)S(=O)(=O)c2ccc(cc2)N1 [NSC 36806] | ~1
3 | CC1=C(Nc2c(C)cc(O)cc2O)C(=O)C=c2oc3c(c21)C(C)=C(Nc1c(C)cc(O)cc1O)C(=O)C=3 [NSC 610930] | 9.3
4 | CN1CCN(c2ccc3[nH]c(-c4ccc5[nH]c(-c6ccc(O)cc6)nc5c4)nc3c2)CC1 [NSC 322921] | ~2.5

— publication PMC4476580, “Novel Broad Spectrum Inhibitors Targeting the Flavivirus Methyltransferase” (PLoS ONE, 2015)
